Compound potency records, mixed from different reports. Data source: NIAID ChemDB in PubChem.

Shared fields: tests on isolated targets; species: HIV-1; protein: Protease; endpoint: inhibition

Percent inhibition refers to the dose given; in toxicity tests it is the harm to the cells. Rows are shuffled and stem from different studies. Blank or dashed fields: not listed here.

compound,read by,tested at,result
NC(=O)C[C@H](NC(=O)CCCCCCCCCCCCCCC(=O)NCc1cccc(C(=O)N[C@@H](Cc2ccccc2)C(N)=O)c1)C(=O)N[C@@H](Cc1ccccc1)C(=O)O,HPLC,1 µM,10%
CC1=CC(C)(C)Nc2ccc(OC(=O)c3cccc([N+](=O)[O-])c3)cc21,,150 µM,26.99%
C[C@@H]1O[C@@H](O[C@H]2[C@H](Oc3cc(O)c4c(=O)cc(-c5ccc(O)cc5)oc4c3)O[C@H](CO)[C@@H](O)[C@@H]2O)[C@H](O)[C@H](O)[C@H]1O,HPLC,50 µg/mL,25.1%
CCC(c1cccc(NC(=O)CCCCc2ccccc2)c1)c1c(O)c2ccccc2oc1=O,substrate cleavage,10 µM,14%
O=c1c(O)c(-c2ccc(O)cc2)oc2cc(O)cc(O)c12,fluorescence,50 µg/mL,62.7%
CC(C)[C@H](NC(=O)CCc1cccnc1)C(=O)N[C@@H](Cc1ccccc1)[C@@H](O)[C@H](O)[C@H](Cc1ccccc1)NC(=O)[C@@H](NC(=O)CCc1cccnc1)C(C)C,fluorescence,0.001 µM,38%
COc1cc(/C=C/C(=O)OCC2OC(OC3(COC(=O)/C=C/c4ccc(O)cc4)OC(COC(=O)/C=C/c4ccc(O)cc4)C(OC(C)=O)C3OC(=O)/C=C/c3ccc(O)cc3)C(O)C(O)C2OC(C)=O)ccc1O,substrate cleavage / fluorescence,100 µg/mL,33.24%
CC1=CC(C)(C)Nc2ccc(OC(=O)c3cccs3)cc21,,150 µM,35.92%
NC(=O)C[C@H](NC(=O)CCCCCCCCCCCCCCC(=O)N[C@@H](CC1CCCCC1)C(=O)N[C@@H](Cc1ccccc1)C(N)=O)C(=O)N[C@@H](Cc1ccccc1)C(=O)O,HPLC,1 µM,31%
C=C1OC(C(=O)O)C(/C(=C/C(=O)O)C(=O)OC2C3COC(=O)c4cc(O)c(O)c(O)c4-c4c(cc(O)c(O)c4O)C(=O)OC2C(O)C(OC(=O)c2cc(O)c(O)c(O)c2)O3)c2c1cc(O)c(O)c2O,HPLC,50 µg/mL,100%
C=C1C(C(C)C2CC=C(C)C(=O)O2)=CC[C@]2(C)C1C[C@]1(O)C=C3C=CC(=O)OC(C)(C)C3[C@H](O)CC21,fluorescence,10 ± 5.5 µg/mL,85%
Cc1ccccc1-n1nnc(C(c2ccccc2)(c2ccccc2)n2ccnc2)c1C,substrate cleavage / fluorescence,0.4 µg/mL,8.9%
COc1ccc(C2Oc3cc(O)cc(O)c3C(=O)C2O)cc1O,fluorescence,50 µg/mL,45.6%
Cc1c(O)cccc1C(=O)N[C@@H](Cc1ccccc1)[C@H](O)C(=O)N1CSC(C)(C)[C@H]1C(=O)NC(C)(C)C,,0.05 µM,87.6%
CC(C)C[C@H](NC(=O)OCc1ccccc1)C(=O)N[C@@H](CC(N)=O)C(=O)NC(Cc1ccccc1)C(O)C(Cc1ccccc1)NC(=O)OC(C)(C)C,fluorescence,0.1 µM,79%
O=C1OC2[C@@H](CO)O[C@@H](OC(=O)c3cc(O)c(O)c(O)c3)[C@H](OC(=O)c3cc(O)c(O)c4c3[C@@H]3C1=CC(=O)C(O)(O)C3(O)O4)[C@H]2O,HPLC,50 µg/mL,0%
CC(C)[C@H](NC(=O)OCc1cccnc1)C(=O)N[C@@H](Cc1ccccc1)[C@@H](O)[C@H](O)[C@H](Cc1ccccc1)NC(=O)[C@@H](NC(=O)OCc1cccnc1)C(C)C,fluorescence,0.001 µM,74%
CC(=O)OC1C(COC(=O)/C=C/c2ccc(O)cc2)OC(COC(=O)/C=C/c2ccc(O)cc2)(OC2OC(COC(=O)/C=C/c3ccc(O)cc3)C(O)C(O)C2O)C1OC(=O)/C=C/c1ccc(O)cc1,substrate cleavage / fluorescence,100 µg/mL,91.58%
CC(C)[C@H](NC(=O)N(C)Cc1ccccn1)C(=O)N[C@@H](Cc1ccccc1)C(O)[C@H](Cc1ccccc1)NC(=O)[C@@H](NC(=O)N(C)Cc1ccccn1)C(C)C,fluorescence,0.05 µM,53%
CC1=CCC(C(C)C2=CC[C@]3(C)C(=C2C)C[C@]2(O)C=C4C=CC(=O)OC(C)(C)C4[C@H](O)CC23)OC1=O,fluorescence,10 ± 1.7 µg/mL,12.3%
CC(C)[C@H](NC(=O)OCc1ccccc1)C(=O)N[C@@H](Cc1ccccc1)[C@H](O)[C@@H](O)[C@H](Cc1ccccc1)NC(=O)[C@@H](NC(=O)OCc1ccccc1)C(C)C,fluorescence,0.001 µM,65%
C/C(=C/CC[C@@H](C)[C@H]1CC[C@@]2(C)C3CCC4C(C)(C)C(=O)CC[C@@]45CC35CC[C@]12C)C(=O)O,fluorescence,10 ± 0.5 µg/mL,89.2%
CC(C)(NC(=O)CCCCCCCCCCCCCCC(=O)N[C@@H](CC(N)=O)C(=O)N[C@@H](Cc1ccccc1)C(=O)O)C(=O)N[C@@H](Cc1ccccc1)C(N)=O,HPLC,1 µM,7%
O=C1CCc2cc(S(=O)(=O)NC(C(=O)NCc3ccco3)c3ccccc3)ccc2N1,,150 µM,34.78%
CC(C)[C@H](NC(=O)CN1CCOCC1)C(=O)N[C@@H](Cc1ccccc1)C(O)[C@H](Cc1ccccc1)NC(=O)[C@@H](NC(=O)OCc1ccccc1)C(C)C,fluorescence,0.005 µM,53%
CC(C)(C)NC(=O)[C@H]1N(C(=O)[C@@H](O)[C@H](Cc2ccccc2)NC(=O)CC(C)(C)C(=O)O)CSC1(C)C,,0.05 µM,76.3%
CC(C)(C)OC(=O)N[C@@H](Cc1ccccc1)[C@@H](O)[C@H](O)[C@H](Cc1ccccc1)NC(=O)OC(C)(C)C,fluorescence,0.1 µM,67%
COc1ccc(-c2oc3cc(O)cc(O)c3c(=O)c2O)cc1,fluorescence,50 µg/mL,20%
CCC(Cc1ccccc1)c1cc(O)c(C(CC)c2ccccc2)c(=O)o1,substrate cleavage,9 µM,13%
CC[C@H](C)[C@H](NC(=O)OCc1ccccc1)C(=O)N[C@@H](Cc1ccccc1)C(O)[C@H](Cc1ccccc1)NC(=O)[C@@H](NC(=O)OCc1ccccc1)[C@@H](C)CC,fluorescence,0.005 µM,52%
C=C1C2C[C@]3(O)C=C4C=CC(=O)OC(C)(C)C4[C@H](O)CC3[C@]2(C)CCC1(O)C(C)C1CC=C(C)C(=O)O1,fluorescence,10 ± 8.3 µg/mL,8.5%
CC(C)[C@H](NC(=O)OCc1ccccc1)C(=O)N[C@@H](CSC1CCCCC1)[C@@H](O)[C@H](O)[C@H](CSC1CCCCC1)NC(=O)[C@@H](NC(=O)OCc1ccccc1)C(C)C,fluorescence,0.1 µM,87%
O=C(OC1CCCCC1)c1ccc2c(c1)C1C=CCC1[C@@H](C(=O)O)N2,,150 µM,57.65%

The last 4 rows once more:

{"compound": "CC[C@H](C)[C@H](NC(=O)OCc1ccccc1)C(=O)N[C@@H](Cc1ccccc1)C(O)[C@H](Cc1ccccc1)NC(=O)[C@@H](NC(=O)OCc1ccccc1)[C@@H](C)CC", "read by": "fluorescence", "tested at": "0.005 µM", "result": "52%"}
{"compound": "C=C1C2C[C@]3(O)C=C4C=CC(=O)OC(C)(C)C4[C@H](O)CC3[C@]2(C)CCC1(O)C(C)C1CC=C(C)C(=O)O1", "read by": "fluorescence", "tested at": "10 ± 8.3 µg/mL", "result": "8.5%"}
{"compound": "CC(C)[C@H](NC(=O)OCc1ccccc1)C(=O)N[C@@H](CSC1CCCCC1)[C@@H](O)[C@H](O)[C@H](CSC1CCCCC1)NC(=O)[C@@H](NC(=O)OCc1ccccc1)C(C)C", "read by": "fluorescence", "tested at": "0.1 µM", "result": "87%"}
{"compound": "O=C(OC1CCCCC1)c1ccc2c(c1)C1C=CCC1[C@@H](C(=O)O)N2", "tested at": "150 µM", "result": "57.65%"}